Human monoclonal antibodies against the spike receptor-binding domain (heavy:light variable regions). IC50 against pseudoviruses bearing the spike of naturally observed variants; lower = stronger; >10 µg/ml means not reached at the top dose. No active / inactive call. The stated detection limit is 0.0005 µg/ml; values near or below 0.001 µg/ml lie at the floor of the assay.
B1: BD55-4394 (protein)
chain 1: EVQLVESGGGLVQPGGSLRLSCAAAGFTFSSYAMHWVRQAPGKGLEYVSSITSDGGGKFYANSAEGRFTISRDNSKNTLYLQMGSLRAEDMALYYCARESGNIVTTTLDFWGQGTLVTVSS
chain 2: DIQMTQSPSSLSASVGDRVTITCRASQIISRYLNWYQQKPGKGPKLLIYGASSLQSGVPARFSGSGSGTDFTLTISSLQPEDFATYYCQQSYSSPLYTFGQGTKLEIK
B2: BD55-4342 (protein)
chain 1: EVQLVESGGSLVKPGGSLRLSCAASGFDFSNYAMDWVRQAPGKGLEWVSSISNSGSLMFYADSVKGRFTISRDNAKNSLYLQLNSLRAEDTAIYFCAREADSNYQVIFDYWGQGSLVTVSS
chain 2: DIQMTQSPSSLSASVGDRVTITCRASQTINTYLNWYQQKPGKAPRLLIYSVSTLQSGVPSRFSGSGSGTDFTLTISSLQPEDFATYFCQQSYNTPQVTFGQGTRLEIK
B3: BD55-4329 (protein)
chain 1: QVQLVESGGGVVQPGRSLRLSCAASGFTFRAFTTYWVRQAPGQGLEWVAVISSDGTAKFYADSVKGRFTISRDDSKNTLFLQMNSLRPEDTAVYYCARVTYAYGFGGEFLDYWGQGTLVTVSS
chain 2: DIQLTQSPSSLSASVGDRVTITCRASQSVSTYLNWYQQKPGNAPKLLIYAASNLQSGVPSRFSGSGSGTDFTLTISSLQPEDFASYYCQQSYVTPALTFGGGTKVEIK
B4: BD55-4328 (protein)
chain 1: QVQLVQSGAEVKKPGSSVKVSCTASGGTFSSYFVTWVRQAPGQGLEWMGRISPLLGESKQAQRLQGRATITADKSTGTVYMELNSLRSEDTAVYYCASGRSLHDVLTGRYNYAMDVWGPGTAVTVSS
chain 2: NFMLTQPHSVSESPGKTVTISCTRSSGSIASNYVQWYQQRPGSAPTTVIYEDNERPSGVPDRFSGSIDSSSNSASLTISGLMTEDEADYYCQSYDGSNDGVFGGGTKLTVL
B5: BD55-4357 (protein)
chain 1: QVQLVESGGGVVQPGRSLRLSCTASGFTLSNYAMHWVRQAPGKGLEWVAAIPNDGSNKFYAESVKGRFTISRDNSKNTVFLQMNSLRGEDTAVYYCARPHDTLTGYYFAYFDSWGQGTLVTVSS
chain 2: ELVMTQSPGTLSVSPGERATLACRASRSVSSSLAWYQQKPGQAPRLLIYDASTRATGIPARFSGSGSGTEFTLTISSLQSEDFAVYYCQQYNNWPPGPFGQGTKVEIK
B6: BD55-4392 (protein)
chain 1: QVHLVQSGAEVKKSGASVKVSCKASAYIFTSYGISWVRQAPGQGLEWMGWISTSTGYTSYSQNLQGRVTMSTDTSTSTAYMELRSLTSDDTAVYYCARESGYSGYDSGGYYYYGMDVWGQGTTVTVSS
chain 2: QSALTQPASVSGSPGQSITISCTGSSSEAVTYNLVSWYQQHPGKAPKLIIYEGSERPSGVSSRFSGSQSGDTASLTISGLQAEDGADYYCCSYAPSAALKGVFGGGTKLTVL

target: SARS-CoV-2 Omicron BA.1 spike pseudovirus; experiment: pseudovirus neutralization IC50; higher = weaker neutralization
Method: (§1)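 Single-round VSV luciferase pseudovirus mixed with antibody dilutions for 1 h and put on Huh-7 cells for about a day; IC50 from the dose curve.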

| Binder | pseudovirus neutralization IC50 [µg/mL] |
| --- | --- |
| B1 | > 10 |
| B2 | 3.52 |
| B3 | > 10 |
| B4 | > 10 |
| B5 | > 10 |
| B6 | > 10 |

target: SARS-CoV-2 Omicron BA.2 spike pseudovirus; experiment: as above
Method: as §1

| Binder | pseudovirus neutralization IC50 [µg/mL] |
| --- | --- |
| B1 | > 10 |
| B2 | 6.47 |
| B3 | > 10 |
| B4 | > 10 |
| B5 | > 10 |
| B6 | > 10 |

target: SARS-CoV-2 Omicron BA.2.75 spike pseudovirus; experiment: as above
Method: as §1

| Binder | pseudovirus neutralization IC50 [µg/mL] |
| --- | --- |
| B1 | > 10 |
| B2 | 4.3 |
| B3 | > 10 |
| B4 | > 10 |
| B5 | > 10 |
| B6 | > 10 |

target: SARS-CoV-2 Omicron BA.5 spike pseudovirus; experiment: as above
Method: as §1

| Binder | pseudovirus neutralization IC50 [µg/mL] |
| --- | --- |
| B1 | > 10 |
| B2 | 1.69 |
| B3 | > 10 |
| B4 | > 10 |
| B5 | > 10 |
| B6 | > 10 |

target: SARS-CoV-2 Omicron BQ.1.1 spike pseudovirus; experiment: as above
Method: as §1

| Binder | pseudovirus neutralization IC50 [µg/mL] |
| --- | --- |
| B1 | > 10 |
| B2 | 2.55 |
| B3 | > 10 |
| B4 | > 10 |
| B5 | > 10 |
| B6 | > 10 |

target: SARS-CoV-2 Omicron XBB spike pseudovirus; experiment: as above
Method: as §1

| Binder | pseudovirus neutralization IC50 [µg/mL] |
| --- | --- |
| B1 | > 10 |
| B2 | 1.96 |
| B3 | > 10 |
| B4 | > 10 |
| B5 | > 10 |
| B6 | > 10 |

target: SARS-CoV-2 early D614G spike pseudovirus; experiment: as above
Method: as §1

| Binder | pseudovirus neutralization IC50 [µg/mL] |
| --- | --- |
| B1 | > 10 |
| B2 | 1.33 |
| B3 | > 10 |
| B4 | 0.938 |
| B5 | 5.61 |
| B6 | > 10 |
